Measured values from several laboratories, pooled; numbers as filed in NIAID ChemDB.

All rows: tests in culture; agent: Rhinovirus; read-out: EC50

Conditions beyond the fields shown may differ between rows.

Fc1cccc(Nc2nc(C(F)(F)F)nc3c2ncn3Cc2ccc(C(F)(F)F)cc2)c1 ; strain or isolate: Serotype 2 ; cell line: M-HELA ; method: plaque count ; value: 43 µM
CSc1nsc(-c2ccc(OC(C)(C)C)cc2)c1C#N ; strain or isolate: Serotype 15 (group B) ; cell line: HELA-OHIO ; method: cytopathic effect ; value: >40 µM
CN(C)c1nc(C(F)(F)F)nc2c1ncn2Cc1ccc(Cl)c(NC=O)c1 ; strain or isolate: Serotype 3 ; cell line: M-HELA ; method: plaque count ; value: >8 µM
Cc1nc(-c2cc(C)c(OCCCc3cc(C(F)(F)F)no3)c(C)c2)no1 ; strain or isolate: Serotype 22 ; cell line: HeLa ; method: cytopathic effect ; value: 0.032 µg/mL
Cc1ccc(Cn2cnc3c(N(C)C)nc(C(F)(F)F)nc32)c(C)c1 ; strain or isolate: Serotype 13 ; cell line: M-HELA ; method: plaque count ; value: >8 µM
CCOC(=O)c1ccc(OCCOc2ccc(-c3snc(SC)c3C#N)cc2)cc1 ; strain or isolate: Serotype 29 (group B) ; cell line: HELA-OHIO ; method: cytopathic effect ; value: >2 µM
Cc1c(-c2ccccc2)n(-c2ccc(F)cc2)c2ccc(C(C)C)cc2c1=O ; strain or isolate: 32/363 ; cell line: HELA-OHIO ; method: cytopathic effect ; value: 0.077 µg/mL
Cc1ccc(Cn2cnc3c(N(C)C)nc(C(F)(F)F)nc32)cc1 ; strain or isolate: Serotype 16 ; cell line: M-HELA ; method: plaque count ; value: >5 µM
CSc1nsc(-c2ccc(OCCCOc3ccc([N+](=O)[O-])cc3)cc2)c1C#N ; strain or isolate: Serotype 86 (group A) ; cell line: HELA-OHIO ; method: cytopathic effect ; value: 0.4 µM
Cc1cc(CCCCCOc2c(Cl)cc(C3=NCCO3)cc2Cl)on1 ; strain or isolate: TYPE 13 ; cell line: HeLa ; method: plaque count ; value: 0.23 µg/mL
Cc1cc(CCCOc2c(C)cc(-c3noc(C(F)(F)F)n3)cc2C)on1 ; strain or isolate: Isolate 40 ; cell line: OHIO HELA-I ; method: cytopathic effect / visual reading ; value: 0.01 µg/mL
COc1ccc(C/C=C/Oc2cc(C)c(-c3noc(C(F)F)n3)c(C)c2)nn1 ; strain or isolate: serotypes 3 4 5 9 16 18 38 66 75 67 ; cell line: HeLa ; method: cytopathic effect ; value: 0.29 µg/mL
CCOC(=O)c1ccc(OCCC2CCN(c3ccc(C)nn3)CC2)cc1 ; strain or isolate: 1200 (ICAM-1 receptor group 33) ; cell line: KB ; method: neutral red ; value: 0.054 µM
COCc1cc(CCCOc2c(Cl)cc(-c3noc(C)n3)cc2Cl)on1 ; strain or isolate: Serotype 50 ; cell line: HeLa ; method: cytopathic effect ; value: 0.074 µg/mL
Cc1c(-c2ccccc2)n(-c2cccc(F)c2)c2ccc(C(C)C)cc2c1=O ; strain or isolate: 8/MRH ; cell line: HELA-OHIO ; method: cytopathic effect ; value: >1 µg/mL
CN(C)c1nc(C(F)(F)F)nc2c1ncn2Cc1ccc(C(F)(F)F)cc1 ; strain or isolate: Serotype 2 ; cell line: M-HELA ; method: plaque count ; value: >4 µM
CSc1nsc(-c2ccc(OCCCOc3ccccc3)cc2)c1C#N ; strain or isolate: Serotype 70 (group A) ; cell line: HELA-OHIO ; method: cytopathic effect ; value: >20 µM
CN(C)c1ccc(Cn2cnc3c(N(C)C)nc(C(F)(F)F)nc32)cc1 ; strain or isolate: Serotype 3 ; cell line: M-HELA ; method: plaque count ; value: >8 µM
CCOC(=O)c1ccc(OCCCCOc2ccc(-c3snc(SC)c3C#N)cc2)cc1 ; strain or isolate: Serotype 86 (group A) ; cell line: HELA-OHIO ; method: cytopathic effect ; value: >2 µM
CSc1nsc(-c2ccc(OCc3ccccc3)cc2)c1C#N ; strain or isolate: Serotype 72 (group A) ; cell line: HELA-OHIO ; method: cytopathic effect ; value: >50 µM
CSc1nsc(-c2ccc(OCCc3ccccc3)cc2)c1C#N ; strain or isolate: Serotype 15 (group B) ; cell line: HELA-OHIO ; method: cytopathic effect ; value: 10 µM
CCn1c2c(c(=O)c3cc(C(C)C)ccc31)Cc1ccccc1-2 ; strain or isolate: 21/47 ; cell line: HELA-OHIO ; method: cytopathic effect ; value: 0.2 µg/mL
CCOc1cc(CCCOc2c(C)cc(-c3noc(C)n3)cc2C)on1 ; strain or isolate: Serotype 67 ; cell line: HeLa ; method: cytopathic effect ; value: 0.106 µg/mL
CCc1ccc(CCCOc2c(C)cc(-c3nnn(C)n3)cc2C)o1 ; strain or isolate: serotypes 2 14 1A 1B 6 21 22 15 25 30 50 67 89 86 41 ; cell line: HeLa ; method: cytopathic effect ; value: 0.453 µg/mL
Fc1cccc(Cn2cnc3c(Nc4cccc(F)c4)nc(C(F)(F)F)nc32)c1 ; strain or isolate: Serotype 40 ; cell line: M-HELA ; method: plaque count ; value: >2.5 µM
CSc1nsc(-c2ccc(OCCCCOc3ccccc3)cc2)c1C#N ; strain or isolate: Serotype 86 (group A) ; cell line: HELA-OHIO ; method: cytopathic effect ; value: 0.45 µM
Cc1ccc(CCCOc2c(C)cc(-c3noc(C(F)F)n3)cc2C)nn1 ; strain or isolate: serotypes 3 4 5 9 16 18 38 66 75 67 ; cell line: HeLa ; method: cytopathic effect ; value: 0.033 µg/mL
CSc1nsc(-c2ccccc2)c1C#N ; strain or isolate: Serotype 86 (group A) ; cell line: HELA-OHIO ; method: cytopathic effect ; value: >80 µM
Cc1ccccc1Cn1cnc2c(N(C)C)nc(C(F)(F)F)nc21 ; strain or isolate: Serotype 5 ; cell line: M-HELA ; method: plaque count ; value: >8 µM
CCc1ccc(CCCOc2ccc(-c3noc(C(F)F)n3)cc2)nn1 ; strain or isolate: serotypes 3 4 5 9 16 18 38 66 75 67 ; cell line: HeLa ; method: cytopathic effect ; value: 0.64 µg/mL

2 of the rows above, restated:

structure | strain or isolate | cell line | method | value
Cc1ccccc1Cn1cnc2c(N(C)C)nc(C(F)(F)F)nc21 | Serotype 5 | M-HELA | plaque count | >8 µM
Cc1ccc(CCCOc2c(C)cc(-c3noc(C(F)F)n3)cc2C)nn1 | serotypes 3 4 5 9 16 18 38 66 75 67 | HeLa | cytopathic effect | 0.033 µg/mL

ECn: concentration that inhibits the pathogen or its effect by n%.